Measurements from patent publication US6703367B1, “Methods for treating hot flashes and gynaecomastia” (Praecis Pharmaceuticals Inc., priority 2001, dated 2004).

Tested on: patients with stage D1 or D2 metastatic prostate cancer or a rising PSA level after local therapy
Experiment: Questionnaire on frequency, severity and duration of hot flashes, 4 weeks of treatment (Example 4)
Format: in vivo, human
Details: number of hot flashes/week 0

## Ac-D-Nal^1, 4-Cl-D-Phe^2, D-Pal^3, N-Me-Tyr^5, D-Asn^6, Lys(iPr)^8, D-Ala^10-LHRH [PPI-149]
  Occurrence of Hot Flashes: patients with 0 hot flashes/week: 61%
